Results of unrelated studies side by side (data: NIAID ChemDB).

Common to all: tests in culture; organism: Staphylococcus aureus; endpoint: MIC

Blank or dashed fields: not listed here. Two numbers with a dash give a range or band. Neighbouring rows are from separate reports.

SMILES	strain	result
COc1ccc(-c2ccc(C3=CC(CNC(C)=O)OC3=O)cc2)ccc1=O	UC9213	2 µg/mL
C[C@H]1COc2c(N3CCN(C)CC3)c(F)cc3c(=O)c(C(=O)O)cn1c23	OC39 methicillin-susceptible	0.25 µg/mL
CC(=O)NC[C@H]1CN(c2ccc(-c3csc(C)c3)c(F)c2)C(=O)O1	UC9213 (methicillin-susceptible)	2 µg/mL
CC[C@H]1OC(=O)C[C@@H](O)[C@H](C)[C@@H](O[C@@H]2O[C@H](C)[C@@H](O)[C@H](N(C)C)[C@H]2O)C(C=O)C[C@@H](C)C(=O)/C=C/C(C)=C/[C@@H]1COC(=O)Nc1cc(F)cc(F)c1	25923 (erythromycin-susceptible)	0.5 µg/mL
O=C(C(O)Sc1ccccn1)N1CC=C(c2c(F)cc(N3C[C@H](COc4ccon4)OC3=O)cc2F)CC1	078 (oxford)	0.5 µg/mL
CNC(=O)CC1NC(=O)c2csc(n2)-c2ccc(-c3nc(C(=O)NCCCN4CCOCC4)cs3)nc2-c2csc(n2)-c2csc(n2)C(C(O)c2ccccc2)NC(=O)CNC(=O)c2nc(sc2CN(C)C)C(C(C)C)NC(=O)c2nc1sc2C	ATCC 33591 (methicillin-resistant)	8 µg/mL
O=C1O[C@@H](COc2ccon2)CN1c1ccc(N2CC(O)C2)c(F)c1	078 (oxford)	16 µg/mL
CC(C)=CCc1c(O)ccc2c1OCC1c3cc4c(cc3OC21)OC(C)(C)C=C4		78.3 µg/mL
O=C(C(O)Cn1cccc1)N1CC=C(c2ccc(N3C[C@H](COc4ccon4)OC3=O)cc2F)CC1	122 (novobiocin-resistant)	2 µg/mL
CC(=S)NC[C@H]1CN(c2ccc(-c3nnc([C@@H](N)CO)s3)c(F)c2)C(=O)O1	UC9213 (methicillin-susceptible)	1 µg/mL
C#CCOC[C@H]1/C=C(C)/C=C/C(=O)[C@H](C)CC(C=O)[C@H](O[C@@H]2O[C@H](C)[C@@H](O)[C@H](N(C)C)[C@H]2O)[C@@H](C)[C@H](O)CC(=O)O[C@@H]1CC	25923 (erythromycin-susceptible)	0.5 µg/mL
CC1=NN=C(OC[C@H]2CN(c3ccc(C4=CCOCC4)c(F)c3)C(=O)O2)C1	004 (methicillin quinolone-resistant)	4 µg/mL
O=C(O)NC[C@H]1CC(c2ccc(N3CCOCC3)c(F)c2)=NO1	UC9213	4 µg/mL
O=C(/C=C/c1ccc([N+](=O)[O-])cc1)NC[C@H]1CN(c2ccc(N3CCOCC3)c(F)c2)C(=O)O1	ATCC 29213 (linezolid-resistant)	>32 µg/mL
CC(=S)NC[C@H]1CN(c2ccc(-c3nnc(CN(C)C(=O)CO)s3)c(F)c2)C(=O)O1	UC9213 (methicillin-susceptible)	1 µg/mL
O=C(NC[C@H]1CN(c2ccc(C3CCS(=O)(=O)CC3)c(F)c2)C(=O)O1)C1CC1	UC 12673	8 µg/mL
CC[C@H]1OC(=O)C[C@@H](O)[C@H](C)[C@@H](O[C@@H]2O[C@H](C)[C@@H](O)[C@H](N(C)C)[C@H]2O)C(C=O)C[C@@H](C)C(=O)/C=C/C(C)=C/[C@@H]1COC(N)=O	25923 (erythromycin-susceptible)	8 µg/mL
CC(=O)NC[C@H]1CN(c2ccc(-c3ncon3)c(F)c2)C(=O)O1	UC6685 (methicillin-resistant)	4 µg/mL
O=C1O[C@@H](COc2ccncn2)CN1c1ccc(C2=CCOCC2)c(F)c1	078 (oxford)	1 µg/mL
CC(=O)NC[C@H]1CN(c2ccc(C(=O)Nc3nccs3)c(F)c2)C(=O)O1	ATCC 29213 (linezolid-resistant)	>64 µg/mL
COC(=O)NC(C)c1nnc(-c2ccc(N3C[C@H](CNC(C)=S)OC3=O)cc2F)s1	UC9213 (methicillin-susceptible)	2 µg/mL
CCCC[C@H](CC(=O)NO)C(=O)N1CCC[C@H]1C(=O)OC(C)(C)C	3 strains	1–4 µg/mL
O=C(C(O)Cn1cccn1)N1CC=C(c2c(F)cc(N3C[C@H](COc4ccon4)OC3=O)cc2F)CC1	078 (oxford)	0.5 µg/mL
CC(=O)NC[C@H]1CN(c2ccc(-c3ccn[nH]3)c(F)c2)C(=O)O1	UC6685 (methicillin-resistant)	1 µg/mL
O=CN(O)CCCP(=O)(O)O	FDA209P JC-1	>800 µg/mL
CS(=O)(=O)N[C@H]1CCN(c2ccc(N3C[C@H](CNc4ccon4)OC3=O)cc2F)C1	122 (novobiocin-resistant)	0.5 µg/mL
CNC(=O)CC1NC(=O)c2csc(n2)-c2ccc(-c3nc(C(=O)NCCCC(=O)O)cs3)nc2-c2csc(n2)-c2csc(n2)C(C(O)c2ccccc2)NC(=O)CNC(=O)c2nc(sc2CO)C(C(C)C)NC(=O)c2nc1sc2C	ATCC 33591 (methicillin-resistant)	0.5 µg/mL
CC(=O)NC[C@H]1CN(c2ccc(C(=O)NO)c(F)c2)C(=O)O1	ATCC 29213 (linezolid-resistant)	64 µg/mL
O=C(O)NC[C@H]1CC(c2cc(F)c(N3CCOCC3)c(F)c2)=NO1	UC9213	4 µg/mL
CO/N=C/c1ccc(/C=C/C(=O)NC[C@H]2CN(c3ccc(N4CCOCC4)c(F)c3)C(=O)O2)cc1	ATCC 29213 (linezolid-resistant)	>64 µg/mL
CC(=O)NC[C@H]1CN(c2ccc(C3CCS(=O)(=O)CC3)c(F)c2)C(=O)O1	UC9213	2 µg/mL
CC(=O)NC[C@H]1CN(c2ccc(C(=O)Nc3ccccn3)c(F)c2)C(=O)O1	ATCC 29213 (linezolid-resistant)	>64 µg/mL
CC[C@H]1OC(=O)C[C@@H](O)[C@H](C)[C@@H](O[C@@H]2O[C@H](C)[C@@H](O)[C@H](N(C)C)[C@H]2O)C(C=O)C[C@@H](C)C(=O)/C=C/C(C)=C/[C@@H]1COC(=O)Nc1ccc(F)c(F)c1	25923 (erythromycin-susceptible)	0.5 µg/mL
CNC(=O)CC1NC(=O)c2csc(n2)-c2ccc(-c3nc(C(=O)NCCC(=O)OC(C)(C)C)cs3)nc2-c2csc(n2)-c2csc(n2)C(C(O)c2ccccc2)NC(=O)CNC(=O)c2nc(sc2CSSc2nc3ccccc3[nH]2)C(C(C)C)NC(=O)c2nc1sc2C	ATCC 33591 (methicillin-resistant)	0.5 µg/mL
CC(C)=CCc1c(O)c(CC=C(C)C)c2occ(-c3ccc(O)cc3O)c(=O)c2c1O		8.3 µg/mL
CNC(=O)CC1NC(=O)c2csc(n2)-c2ccc(-c3nc(C(=O)NCCC(=O)O)cs3)nc2-c2csc(n2)-c2csc(n2)C(C(O)c2ccccc2)NC(=O)CNC(=O)c2nc(sc2CSc2nc3cccnc3s2)C(C(C)C)NC(=O)c2nc1sc2C	ATCC 33591 (methicillin-resistant)	0.5 µg/mL
CC(=O)NC[C@H]1CN(c2ccc(C(=O)Nc3ccncc3)c(F)c2)C(=O)O1	ATCC 29213 (linezolid-resistant)	>64 µg/mL
CNC(=O)CC1NC(=O)c2csc(n2)-c2ccc(-c3nc(COC(=O)NCCC(=O)O)cs3)nc2-c2csc(n2)-c2csc(n2)C(C(O)c2ccccc2)NC(=O)CNC(=O)c2nc(sc2CSc2ncccn2)C(C(C)C)NC(=O)c2nc1sc2C	ATCC 33591 (methicillin-resistant)	0.25 µg/mL
CC(=S)NC[C@H]1CN(c2ccc(-c3nnc(CNC(=O)CO)s3)c(F)c2)C(=O)O1	UC9213 (methicillin-susceptible)	1 µg/mL
CNC(=O)CC1NC(=O)c2csc(n2)-c2ccc(-c3nc(C(=O)NCCC(=O)OC(C)(C)C)cs3)nc2-c2csc(n2)-c2csc(n2)C(C(O)c2ccccc2)NC(=O)CNC(=O)c2nc(sc2CSSc2ccc(CCC(=O)O)cc2)C(C(C)C)NC(=O)c2nc1sc2C	ATCC 33591 (methicillin-resistant)	>16 µg/mL
O=C(/C=C/c1ccccc1)NC[C@H]1CN(c2ccc(N3CCOCC3)c(F)c2)C(=O)O1	ATCC 29213 (linezolid-resistant)	>64 µg/mL
CC(=O)NC[C@H]1CN(c2ccc(C(=O)NN)c(F)c2)C(=O)O1	ATCC 29213 (linezolid-resistant)	>64 µg/mL
COC(=O)N1CC=C(c2ccc(C3=NO[C@H](CNC(=O)O)C3)cc2)CC1	UC9218	>16 µg/mL
CC[C@H]1OC(=O)C[C@@H](O)[C@H](C)[C@@H](O[C@@H]2O[C@H](C)[C@@H](O)[C@H](N(C)C)[C@H]2O)C(C=O)C[C@@H](C)C(=O)/C=C/C(C)=C/[C@@H]1CO	25923 (erythromycin-susceptible)	2 µg/mL
C=CCCC(=O)NC[C@H]1CN(c2ccc(N3CCOCC3)c(F)c2)C(=O)O1	ATCC 29213 (linezolid-resistant)	>64 µg/mL
NCC1CCN(c2nc3c(cc2F)c(=O)c(C(=O)O)cn3C2CC2)C1	Giorgio	0.031 µg/mL
CC(=O)NC[C@H]1CN(c2ccc(-c3ccn(C)n3)c(F)c2)C(=O)O1	UC9213 (methicillin-susceptible)	8 µg/mL
CC(=S)NC[C@H]1CN(c2ccc(-c3nnc([C@@H](N)C(C)C)s3)c(F)c2)C(=O)O1	UC9213 (methicillin-susceptible)	1 µg/mL
CC(O)C(=O)N1CC=C(c2ccc(N3C[C@H](COc4cnsn4)OC3=O)cc2F)CC1	004 (methicillin quinolone-resistant)	0.25 µg/mL
C[C@H]1NCc2cc(-c3ccc4c(=O)c(C(=O)O)cn(C5CC5)c4c3OC(F)F)ccc21	A29030 (methicillin-resistant)	0.06 µg/mL
CC(=O)NC[C@H]1CN(c2ccc(C(=O)Nc3ccc(Cl)nc3)c(F)c2)C(=O)O1	ATCC 29213 (linezolid-resistant)	>64 µg/mL
CSCC(=O)NC[C@H]1CN(c2ccc(N3CCOCC3)c(F)c2)C(=O)O1	ATCC 29213 (linezolid-resistant)	>64 µg/mL
C=CCOC[C@H]1/C=C(C)/C=C/C(=O)[C@H](C)CC(C=O)[C@H](O[C@@H]2O[C@H](C)[C@@H](O)[C@H](N(C)C)[C@H]2O)[C@@H](C)[C@H](O)CC(=O)O[C@@H]1CC	25923 (erythromycin-susceptible)	0.25 µg/mL
COc1c(N2CC[C@@H]([C@H](C)NC/C=C/C3=C(C(=O)O)N4C(=O)[C@@H](NC(=O)COc5ccccc5)[C@H]4CC3)C2)c(F)cc2c(=O)c(C(=O)O)cn(C3CC3)c12		0.03 µg/mL
CC[C@H]1OC(=O)C[C@@H](O)[C@H](C)[C@@H](O[C@@H]2O[C@H](C)[C@@H](O)[C@H](N(C)C)[C@H]2O)C(C=O)C[C@@H](C)C(=O)/C=C/C(C)=C/[C@@H]1COC(=O)Nc1ccc(Cl)cc1	25923 (erythromycin-susceptible)	0.5 µg/mL
N#Cc1ccn(-c2ccc(N3C[C@H](COc4ccon4)OC3=O)cc2F)c1	078 (oxford)	0.5 µg/mL
CC(C)=CCc1cc(O)cc2c1C1COc3c(ccc(O)c3CC=C(C)C)C1O2		12.8 µg/mL

The first 4 rows once more:

SMILES	strain	result
COc1ccc(-c2ccc(C3=CC(CNC(C)=O)OC3=O)cc2)ccc1=O	UC9213	2 µg/mL
C[C@H]1COc2c(N3CCN(C)CC3)c(F)cc3c(=O)c(C(=O)O)cn1c23	OC39 methicillin-susceptible	0.25 µg/mL
CC(=O)NC[C@H]1CN(c2ccc(-c3csc(C)c3)c(F)c2)C(=O)O1	UC9213 (methicillin-susceptible)	2 µg/mL
CC[C@H]1OC(=O)C[C@@H](O)[C@H](C)[C@@H](O[C@@H]2O[C@H](C)[C@@H](O)[C@H](N(C)C)[C@H]2O)C(C=O)C[C@@H](C)C(=O)/C=C/C(C)=C/[C@@H]1COC(=O)Nc1cc(F)cc(F)c1	25923 (erythromycin-susceptible)	0.5 µg/mL